Compound potency records, mixed from different reports. Data source: NIAID ChemDB in PubChem.

Shared fields: host cell toxicity; cells: MT-4; measure: CC50

Neighbouring rows are from separate reports. CCn is the concentration with n% toxicity to the cells.

smiles | result
COc1c(O)c(Cl)c2c(c1OC)-c1c(c(Cl)c(O)c(OC)c1OC)C[C@H](C)[C@H](C)C2 | 41.9 µM
O=c1oc(C(CC2CC2)CC2CC2)cc(O)c1C(c1cccc(NS(=O)(=O)c2ccccc2)c1)C1CC1 | >30 µM
O=C1Nc2cscc2S(=O)(=O)N1c1cccc(Cl)c1 | 110.7 µM
CC(C)=CCN1CCn2c(=S)[nH]c3ccc(Cl)c(c32)C1 | 177 µg/mL
Cc1cn([C@H]2C[C@H](F)[C@@H](CO)O2)c(=O)[nH]c1=O | 62.5 µM
Cc1nc(CCCCCCC(=O)c2ccccc2)n2nc(-n3cnnc3)ccc12 | 260 µM
O=c1[nH]c(=O)n([C@H]2C[C@H](F)[C@@H](CO)O2)cc1Br | 95 µM
COc1c(O)c(I)c2c(c1OC)-c1c(c(I)c(O)c(OC)c1OC)C[C@H](C)[C@H](C)C2 | 21 µM
CSc1nc(N)nc2c1ncn2[C@H]1C[C@H](N=[N+]=[N-])[C@@H](CO)O1 | >200 µM
C1CNCCNCCCN[C@H]([C@H]2CNCCCNCCNCCCN2)CNC1 | 298 µg/mL
CNc1ccc2c(C)nc(CCCCCCC(=O)c3ccccc3)n2n1 | 25 µM
C1CNCCNCC(C2CNCCNCCCNCCNC2)CNCCNC1 | 58 µg/mL
Cc1cn([C@H]2C[C@H](N=[N+]=[N-])[C@@H](CO)O2)c(=O)[nH]c1=O | 162 µg/mL
CCNC(=O)[C@@H](NC(=O)Cc1ccccc1)[C@@H]1N[C@@H](C(=O)NCCNC(=O)[C@@H]2N[C@@H]([C@H](NC(=O)Cc3ccccc3)C(=O)NCC)SC2(C)C)C(C)(C)S1 | >128 µM
Cc1cn([C@H]2C[C@H](N=[N+]=[N-])[C@@H](CO)O2)c(=O)[nH]c1=O | 35 µg/mL
O=C(NCCCN1CCCN(CCCNC(=O)OCc2ccccc2)CCCN(CCCNC(=O)OCc2ccccc2)CCN(CCCNC(=O)OCc2ccccc2)CCC1)OCc1ccccc1 | 50 µM
C1CNCCNCC(C2CNCCNCCCNCCNC2)CNCCNC1 | 58 µg/mL
O=C(/C=C/c1cn([C@H]2C=C[C@@H](CO)O2)c(=O)[nH]c1=O)NCCCCCCNC(=O)C(F)(F)F | >100 µM
O=c1oc(C(CC2CC2)CC2CC2)cc(O)c1C(c1cccc(NS(=O)(=O)c2cccc3cccnc23)c1)C1CC1 | >30 µM
CN=C1CN=C(c2ccc[nH]2)c2cc(Cl)ccc2N1 | 46 µM
CN1C(=O)N(c2cccc(Cl)c2)S(=O)(=O)c2cscc21 | 484.5 µM
C=CCn1c(=O)c(C)cn([C@@H]2O[C@H](CO[Si](C)(C)C(C)(C)C)C3(OS(=O)(=O)C=C3N)[C@H]2O[Si](C)(C)C(C)(C)C)c1=O | >330 µM
Cc1nc(CCCCCCC(=O)c2ccccc2)n2nc(N)ccc12 | 30 µM
CCOc1ccc(CSc2nc(Cc3c(F)cccc3F)c(C)c(=O)[nH]2)cc1 | >62.19 µM
Cc1cn([C@H]2C=C[C@@H](COC(=O)CCCC(=O)N3CCCN(C(=O)OC(C)(C)C)CCN(C(=O)OC(C)(C)C)CCCN(C(=O)OC(C)(C)C)CC3)O2)c(=O)[nH]c1=O | 50 µM
Cc1c(Sc2ccccc2)n(COCCO)c(=O)[nH]c1=O | 740 µM
O=c1ccn([C@H]2C[C@H](F)[C@@H](CO)O2)c(=O)[nH]1 | 1.1 µM
COCOc1cc(OCC=C(C)C)c2c(=O)c(OCOC)c(-c3ccc(OCOC)c(OCOC)c3)oc2c1 | >100 µg/mL
CC(C)=CCN1Cc2c(C)ccc3[nH]c(=S)n(c23)C[C@@H]1C | 22 µg/mL
O=c1[nH]c(=O)n([C@H]2C[C@H](F)[C@@H](CO)O2)cc1I | 3.3 µM
O=C(NCCCCN1CCCN(CCCCNC(=O)OCc2ccccc2)CCN(CCCCNC(=O)OCc2ccccc2)CCCN(CCCCNC(=O)OCc2ccccc2)CC1)OCc1ccccc1 | 10 µM
CC(C)(C)OC(=O)N1CCCN(C(=O)OC(C)(C)C)CCN(C(=O)OC(C)(C)C)CCCN(C(=O)CCCC(=O)OC[C@@H]2CC[C@H](n3cnc4c(=O)[nH]cnc43)O2)CC1 | 50 µM
Fc1cccc(F)c1CCNC(=S)Nc1ccccn1 | 341 µM
COc1ccc(C#CCSc2nc(C(C)c3c(Cl)cccc3Cl)c(C)c(=O)[nH]2)cc1 | >54.47 µM
CC(C)(C)OC(=O)N1CCCN(C(=O)OC(C)(C)C)CCN(C(=O)OC(C)(C)C)CCCN(CCCCC(=O)Nc2ccn([C@H]3CC[C@@H](COC(=O)CCCCN4CCCN(C(=O)OC(C)(C)C)CCN(C(=O)OC(C)(C)C)CCCN(C(=O)OC(C)(C)C)CC4)O3)c(=O)n2)CC1 | 10 µM
CC(C)=CCN1Cc2cccc3[nH]c(=S)n(c23)C[C@H]1C | ≥250 µg/mL
C1CNCCNCCCN[C@@H]([C@H]2CNCCCNCCNCCCN2)CNC1 | 200 µg/mL
CN1C(=O)N(Cc2ccccc2)c2cscc2S1(=O)=O | 79.1 µM
Nc1ccn([C@H]2C=C[C@@H](CO)O2)c(=O)n1 | 42 µM
Cc1cc(O)c(C(c2cccc(NS(=O)(=O)c3cn(C)cn3)c2)C2CC2)c(=O)o1 | >30 µM
Cc1cn([C@H]2C[C@H](N=[N+]=[N-])[C@@H](COC(=O)CCCC(=O)N3CCCN(C(=O)OC(C)(C)C)CCN(C(=O)OC(C)(C)C)CCCN(C(=O)OC(C)(C)C)CC3)O2)c(=O)[nH]c1=O | 50 µM
Cc1cn([C@H]2C[C@H](F)[C@@H](CO)O2)c(=O)[nH]c1=O | >0.001 µM
CNC(=O)CSP(=O)(NCC(=O)OC)OC[C@@H]1CC[C@H](n2ccc(N)nc2=O)O1 | >100 µM
NCCCCCN1CCCN(CCCCCN)CCN(CCCCCN)CCCN(CCCCCN)CC1 | 10 µM
CC(C)(C)OC(=O)N1CCCN(C(=O)OC(C)(C)C)CCN(C(=O)OC(C)(C)C)CCCN(CCCCC(=O)OC[C@H]2O[C@@H](n3ccc(N)nc3=O)CS2)CC1 | 50 µM
CNC(=O)CSP(=O)(NCC(=O)OC)OC[C@@H]1CC[C@H](n2cnc3c(=O)[nH]cnc32)O1 | >10 µM
Cc1ccc(C(=O)Nc2ccc(S(=O)(=O)O)c3cc(S(=O)(=O)O)cc(S(=O)(=O)O)c23)cc1NC(=O)c1cccc(NC(=O)Nc2cccc(C(=O)Nc3cc(C(=O)Nc4ccc(S(=O)(=O)O)c5cc(S(=O)(=O)O)cc(S(=O)(=O)O)c45)ccc3C)c2)c1 | >500 µg/mL
CC(C)=CCc1c(O)cc(O)c2c(=O)c(OC3O[C@@H](C)[C@H](O)[C@@H](O)[C@H]3O[C@@H]3O[C@H](CO)[C@@H](O)[C@H](O)[C@H]3O)c(-c3ccc(O)cc3)oc12 | >500 µg/mL
S=C(NCCc1ccccc1)Nc1nccs1 | 380 µM
Nc1ncnc2c1ncn2[C@H]1CC[C@@H](CO)O1 | 1200 µM
CCN(CC)CC.COC(=O)CNP(=O)(O)OC[C@H]1O[C@@H](n2cc(C)c(=O)[nH]c2=O)C[C@@H]1F | 70 µM
Cc1nc(CCCCCCCC(=O)c2ccccc2)n2nc(Cl)ccc12 | 250 µM
CCc1csc(NC(=S)NCCc2ccccc2)n1 | 343 µM
N#CCCN1C(=O)N(Cc2ccccc2)S(=O)(=O)c2cscc21 | 130.4 µM
Cc1cn([C@H]2C[C@H](N=[N+]=[N-])[C@@H](CO)O2)c(=O)[nH]c1=O | >500 µM
Cc1nc(CCCCCOC(=O)c2ccccc2)n2nc(Cl)ccc12 | >25 µM
O=C(c1ccccc1)N1C(=O)N(Cc2ccccc2)S(=O)(=O)c2cscc21 | 132.3 µM
Cc1cn([C@H]2C[C@H](N=[N+]=[N-])[C@@H](CO)O2)c(=O)[nH]c1=O | >100 µM
COc1ccc(COCCSc2nc(Cc3c(Cl)cccc3Cl)c(C)c(=O)[nH]2)cc1 | >53.76 µM
C=CCN1C(=O)N(Cc2ccccc2)S(=O)(=O)c2cscc21 | 303.8 µM
[N-]=[N+]=N[C@H]1C[C@H](n2cnc3c(NC4CCC4)nc(N)nc32)O[C@@H]1CO | <200 µM
Cc1ccnc2c1NC(=O)c1cccnc1N2C1CC1 | 156 µM
C1CNCCCNCCNCCCNC1 | >100 µM
CC(C)=CCN1Cc2cc(Cl)cc3[nH]c(=S)n(c23)C[C@H]1C | 5.5 µg/mL
COCOc1ccc(C2CC(=O)c3c(O)cc(OCOC)cc3O2)c(OCOC)c1 | >100 µg/mL
NCCCCN1CCCN(CCCCN)CCN(CCCCN)CCCN(CCCCN)CC1 | 50 µM
CCN1C(=O)N(Cc2ccc(OC)cc2OC)S(=O)(=O)c2cscc21 | 255.2 µM
O=C(NCCCN1CCCN(CCCNC(=O)OCc2ccccc2)CCN(CCCNC(=O)OCc2ccccc2)CCCN(CCCNC(=O)OCc2ccccc2)CC1)OCc1ccccc1 | 50 µM
[N-]=[N+]=N[C@H]1C[C@H](n2cnc3c(Nc4ccccc4)nc(N)nc32)O[C@@H]1CO | <200 µM
C[C@@H]1O[C@@H](Oc2c(-c3ccc(O)cc3)oc3c4c(cc(O)c3c2=O)OC(C)(C)C=C4)[C@H](O)[C@H](O)[C@H]1O | >500 µg/mL
Cc1cn([C@H]2C[C@H](N=[N+]=[N-])[C@@H](CO)O2)c(=O)[nH]c1=O | >100 µM
[N-]=[N+]=N[C@H]1C[C@H](n2cnc3c(NC4CC4)nc(N)nc32)O[C@@H]1CO | <200 µM
CCc1c(Cc2c(Cl)cccc2Cl)nc(SC/C=C/c2ccc(C#N)cc2)[nH]c1=O | >54.82 µM
COc1cccc(CCNC(=S)Nc2nccs2)c1 | 34 µM
CCN(CC)CC.CNC(=O)CSP(=O)(O)OC[C@H]1O[C@@H](n2cc(C)c(=O)[nH]c2=O)C[C@@H]1F | >90 µM
CCC(Cc1ccccc1)c1cc(O)c(C(c2cccc(NS(=O)(=O)c3ccc(Cl)cc3)c2)C2CC2)c(=O)o1 | >30 µM
Cc1c(Cc2c(F)cccc2F)nc(SCC#Cc2ccc([N+](=O)[O-])cc2)[nH]c1=O | >58.55 µM
[N-]=[N+]=N[C@H]1C[C@H](n2cnc3c(Oc4ccccc4)nc(N)nc32)O[C@@H]1CO | >200 µM
Cc1nc(CCCCCCCc2ccccc2)n2nc(Cl)ccc12 | 250 µM
CC(C)=CCN1[C@@H](C)Cn2c(=S)[nH]c3cccc(c32)[C@@H]1C | 23 µg/mL
CCCN(C)c1nc(N)nc2c1ncn2[C@H]1C[C@H](N=[N+]=[N-])[C@@H](CO)O1 | >200 µM
CCN1C(=O)N(c2cccc(Cl)c2)S(=O)(=O)c2cscc21 | 62.4 µM
Cc1cn([C@H]2C=C[C@@H](COC(=O)CCCCN3CCCN(C(=O)OC(C)(C)C)CCN(C(=O)OC(C)(C)C)CCCN(C(=O)OC(C)(C)C)CC3)O2)c(=O)[nH]c1=O | 50 µM
[N-]=[N+]=N[C@H]1C[C@H](n2cnc3c(=S)nc(N)[nH]c32)O[C@@H]1CO | ~80 µM
Cc1c(C(C)c2c(F)cccc2F)nc(SC/C=C/c2ccc(C#N)cc2)[nH]c1=O | >59.1 µM